These results are taken from article PMC8085991.

The subject of the data set is Nc1nc2c(ncn2[C@@H]2O[C@H](COP(=O)(O)OP(=O)(O)OP(=O)(O)O)[C@@H](O)[C@H]2O)c(=O)[nH]1. Kind of data set: purified protein. To be noted: 59 nM GST-FlhFBb; GTP 0-100 μM; room temperature.

Regarding “rFlhFBb (BB0270, GST-FlhFBb) (Borreliella burgdorferi B31; K187A)”, the Km (usually the concentration of substrate that gives half-maximal velocity) was 5.15 ± 0.86 µM; the Vmax (usually the top rate of the reaction or transport when substrate is in excess) turned out to be 39.4 µmol/min; the kcat (in general, the number of substrate molecules converted per active site and unit of time at saturation) was 0.0112 s⁻¹; the kcat/Km (usually the second-order rate constant that governs catalysis at low substrate concentration) came to 2170 M⁻¹ s⁻¹.
In the same order, the values of “rFlhFBb (BB0270, GST-FlhFBb) (Borreliella burgdorferi B31; R218G)” are 4.99 ± 1.38 µM, 41 µmol/min, 0.0117 s⁻¹ and 2340 M⁻¹ s⁻¹.
